B1: HIV-1 Env, reservoir clone (protein)
chain: MRVKGIKRNCQRLWKWGTMLLGMLMICSAADNLWVTVYYGVPVWKDATTTLFCASDAKGYETEVHNVWATHACVPTDPSPNEVVLENVTENFNMWKNDMVEQMHEDIISLWDQSLKPCVKLTPLCVTLHCTNATSNVTLNCTGATKDGRCNTTVSSGNNTTDGTQVVRTETDEIKNCTFNITTSTRENVKGHALFSDLDIVPIDNNDNSSDTNYKLIRCNTSVITQACPKVSFEPIPIHYCAPAGFAILKCRDKGFNGTGPCKNVSTVQCTHGIRPVVSTHLLLNGSLAEGGVVIKSENFSDNAKTIIVQLADAVNITCSRPNNNTRKRMSLGPGKVWYSTGDIIGDIRKAHCNLSRSAWNKTLHQVVAKLREQFGNKTIIFKPPPGGDPEILMHNFICGGEFFYCNSTQLFNSTWNSTMDSSTGESNDTNITLHCKIKQIINMWQEVGRAMYAPPIKGQIRCSSNITGLLLTRDGGNNIDTPSTNETFRPGGGNMKDNWRSELYKYKVVKIEPLGVAPTKARRRVVQREKRAVGVIGAMFLGFLGAAGSTMGAASLTLTVQARQLLSGIVQQQNNLLKAIEAQQQLLRLTVWGIKQLQARVLAVERYLRDQQLLGIWGCSGKLICTTSVPWNASWSNKSVDDIWENMTWMQWEREIDNYTGIIYNLLEKSQNQQEKNEQELLELDKWASLWNWFDISNWLWYIKIFIMIVGGLVGLRIVFAVLSIVNRVRQGYSPLSFQTRFPAPRGPDRPEGIEEGGGERDRGRSDRLVTGLLELIWDDLRSLCLFSYHRLSDLLLIAARIVELLGRRGWEVLKYWWNLLQYWSQELKNSSVSLLNATAIAVAEGTDRIIEVVLRIYRAIIHIPTRIRQGLERALL
B2: HIV-1 Env, reservoir clone (protein)
chain: MRVKEIKRNCQRLWKWGTMLLGMLMICSAADNLWVTVYYGVPVWKDATTTLFCASDAKGYETEVHNVWATHACVPTDPSPNEVVLENVTENFNMWKNDMVEQMHEDIISLWDQSLKPCVKLTPLCVTLHCTNATNNVTLNCTANADVKCNTTGSSGHNATNGTMVFKTETDEIKNCTFNITTSTREHVKGHALFSDLDLVYNDKNQSYRLIRCNTSVITQACPKVSFEPIPIHYCAPAGFAILKCRDKGFNGTGPCKNVSTVQCTHGIRPVVSTHLLLNGSLAEGEVVIRSENFTNNAKTIIVQLAEAVNISCSRPNNNTRKRMSLGPGKVWYSTGDIIGDIRKAHCNLSSQAWNKTLHQVVAKLREQFENKTIIFKPPPGGDPEIIMHSFNCGGEFFYCNSTPLFNSTWHNSTWNSTMDRNFSDTSEITLQCRIKQIINMWQGVGRAMYAPPIKGQIRCSSNITGLLLTRDGGNTITTSTNETFRPGGGNMKDNWRSELYKYKVIKIEPLGVAPTKARRRVVQREKRAVGVIGAMFLGFLGAAGSTMGAASLTLTVQARQLLSGIVQQQNNLLKAIEAQQQLLRLTVWGIKQLQARVLAVERYLRDQQLLGIWGCSGKLICTTSVPWNASWSNKSVDDIWGNMTWMQWEREIDNYTGIIYNLLEKSQNQQEKNEQELLELDKWASLWNWFDISNWLWYIKIFIMVVGGLVGLRIVFAVLSIVNRVRQGYSPLSFQTRFPVPRGPDRPEGIEEGGGERDRGRSDRLVTGLLELIWDDLRSLCIFSYHRLSDLLLIAARIVELLGRRGWEVLKYWWNLLQYWSQELKNSSVSLLNATAIAVAEGTDRIIEAVLRIYRAIIHIPTRIRQGLERALL
B3: HIV-1 Env, reservoir clone (protein)
chain: MRVKGIKRNCQRLWKWGTMLLGMLMICSAADNLWVTVYYGVPVWKDATTTLFCASDAKGYETEVHNVWATHACVPTDPSPNEVVLENVTENFNMWKNDMVEQMHEDIISLWDQSLKPCVKLTPLCVTLHCTNATNNVTLNCTANADVKCNITGGSGHNATNGTMVFKTETDEIKNCTFNITTSTREHVKGHALFSDLDLVYNDKNQSYRLIRCNTSVITQACPKVSFEPIPIHYCAPAGFAILKCRDKGFNGTGPCKNVSTVQCTHGIRPVVSTHLLLNGSLAEGGVVIKSENFSDNAKTIIVQLAETVNITCSRPNNNTRKRMSLGPGKVWYSTGDIIGDIRKAHCNLSRSAWNKTLHQVVAKLREQFENKTIIFKSPPGGDPEILMHNFICGGEFFYCNSTPLFNTTWHNSTWNSTMGNTEGSNDTNITLHCRIKQIINMWQGVGRAMYAPPIKGQIRCSSNITGILLTRDGGNNITTSTNETFRPGGGNMKDNWRSELYKYKVIKIEPLGVAPTKARRRVVQREKRAVGVIGAMFLGFLGAAGSTMGAASLTLTVQARQLLSGIVQQQNNLLKAIEAQQQLLRLTVWGIKQLQARVLAVERYLRDQQLLGIWGCSGKLICTTSVPWNASWSNKSVDDIWGNMTWMQWEREIDNYTGIIYNLLEKSQNQQEKNEQELLELDKWASLWNWFDISNWLWYIKIFIMVVGGLIGLRIVFAVLSVVNRVRQGYSPLSFQTRFPVPRGPDRPEGIEEGGGERDRGRSDRLVTGLLELIWDDLRSLCIFSYHRLSDLLLIAARIVELLGRRGWEVLKYWWNLLQYWSQELKNSAVSLLNATAIAVAEGTDRIIEAVLRIYRAIIHIPTRIRQGLERALL

Experimental findings from the supplement of paper PMC12637763 are described below.

This is one part of the list. Env chains of viruses from a treatment-interruption trial, translated from the printed DNA. IC50 / IC80 of two broadly neutralizing antibodies; lower = more sensitive virus; >50 µg/ml means not reached and <0.001 µg/ml is below the lowest dose. No active / inactive call.

One assay has as its target antibody 10-1074. Description: neutralization IC50; higher = virus less sensitive to the antibody. The procedure:
(§1)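 Pseudovirus bearing the Env chain mixed with antibody, from 50 µg/ml in fivefold dilutions, on TZM-bl reporter cells, in duplicate.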
Turning to B1, the “neutralization IC50” value amounted to 0.057 µg/mL.

B2: the “neutralization IC50” value was determined as 0.19 µg/mL.

Consider B3, for which the “neutralization IC50” value was found to be 0.094 µg/mL.

In a further assay the target is antibody 3BNC117. The assay is described as above. The procedure: as §1
As to B1, the “neutralization IC50” value was 0.033 µg/mL.

Turning to B2, the “neutralization IC50” value came out at 0.009 µg/mL.

With B3, the “neutralization IC50” value came out at 0.039 µg/mL.

Another assay concerns the target antibody 10-1074. The experiment in a line: neutralization IC80; higher = virus less sensitive to the antibody. The procedure: as §1
Consider B1, for which the “neutralization IC80” value is 0.476 µg/mL.

Consider B2, for which the “neutralization IC80” value worked out at 2.25 µg/mL.

On to B3, for which the “neutralization IC80” value came out at 0.942 µg/mL.

For another assay, the target named is antibody 3BNC117. The assay is described as above. The procedure:
as §1
Consider B1, for which the “neutralization IC80” value worked out at 0.109 µg/mL.

As for B2, the “neutralization IC80” value is 0.028 µg/mL.

Turning to B3, the “neutralization IC80” value turned out to be 0.247 µg/mL.
